Results of unrelated studies side by side (data: NIAID ChemDB).

Shared fields: growth or infection tests; organism: Hepatitis C virus

ECn: concentration that inhibits the pathogen or its effect by n%.

CN1CC2CCC(C1)N2C(=O)C1=Cc2c(OC(C)(F)F)cccc2-c2c(C3CCCCC3)c3ccc(C(=O)NS(=O)(=O)N(C)C)cc3n2C1 ; read by: replicon ; measure: EC50 ; result: >0.5 µM
Cc1cccc(/C(N)=N/OC(=O)N2CCOCC2)c1 ; read by: replicon ; cells: Huh7 ; measure: EC50 ; result: 3.32 µM
Nc1c(C(=O)N2CCOCC2)sc2nc3c(c(C(F)(F)F)c12)CCc1ccccc1-3 ; read by: MTT ; cells: Huh7 ; measure: EC50 ; result: 3.9 µM
CCCNC(=O)N[C@H](C(=O)N1C[C@H](Oc2cc(-c3ccccc3)nc3cc(OC)ccc23)C[C@H]1C(=O)N[C@]1(C(=O)NS(=O)(=O)C2CC2)C[C@H]1CC)C(C)C ; read by: replicon ; cells: Huh7 ; strain or isolate: 1b ; measure: EC50 ; result: <0.05 µM
COc1ccc(C2C3=C(CC(C)(C)CC3=O)Nc3c(O)cccc3N2C(=O)C(C)C)c2ccccc12 ; read by: luciferase / reporter gene / replicon ; strain or isolate: 1b ; measure: EC50 ; result: 0.9 µM
NC(=S)Nc1cccc(OCCCCCOc2c(Cl)cccc2Cl)c1 ; read by: reporter gene / fluorescence ; cells: Ava5-EG(delta4AB)SEAP ; measure: EC50 ; result: 0.001–1 µM
COc1ccc(-c2cc(C(F)(F)F)c3c(N)c(C(N)=O)sc3n2)cc1 ; read by: MTT ; cells: Huh7 ; measure: EC50 ; result: 4 µM
COC(=O)c1ccc2c(C3CCCCC3)c3n(c2c1)CC(C(=O)N1C2CCC1CN(C)C2)=Cc1cc(OC)ccc1-3 ; read by: replicon ; measure: EC50 ; result: >0.5 µM
Nc1ncnc2c1ncn2[C@@H]1CNC[C@@H]1OCP(=O)(O)O ; read by: replicon ; measure: EC50 ; result: >50 µM
CS(=O)(=O)Nc1ccc2c(c1)S(=O)(=O)N=C(C1=C(O)C3C([C@@H]4CC[C@H]3C4)N(Cc3nccs3)C1=O)N2 ; read by: replicon ; strain or isolate: 1b ; measure: EC50 ; result: 1 µM
COc1ccc2c(O[C@@H]3C[C@H]4C(=O)N[C@]5(C(=O)O)C[C@H]5/C=C\CCCCN(NC(=O)OC(C)(C)C)C(=O)[C@@H]4C3)cc(-c3ccccc3)nc2c1 ; read by: luciferase ; cells: Huh7-Rep ; strain or isolate: 1b ; measure: EC50 ; result: >0.01 µM
Nc1ncnc2c1c(-c1cccs1)cn2[C@@H]1O[C@H](CO)[C@@H](O)C1(F)F ; read by: replicon ; cells: HCV replicon ; strain or isolate: 1a ; measure: EC50 ; result: 5.3 µM
COc1ccc2c(O[C@@H]3C[C@H]4C(=O)N[C@]5(C(=O)O)C[C@H]5/C=C\CCCCCN(NC(=O)OC(C)(C)C)C(=O)[C@@H]4C3)cc(-c3ccccc3)nc2c1 ; read by: luciferase ; cells: Huh7-Rep ; strain or isolate: 1b ; measure: EC50 ; result: >0.01 µM
COC(=O)N[C@H](C(=O)N1CCC[C@H]1c1ncc(-c2ccc(-c3ccc(-c4cnc([C@@H]5CCCN5C(=O)[C@@H](NC(=O)OC)C(C)C)[nH]4)cc3)cc2)[nH]1)C(C)C ; read by: replicon ; cells: Huh7 ; strain or isolate: Con1 ; measure: EC50 ; result: 0.000006 µM
Cc1ncnc2c1ncn2[C@@H]1O[C@H](CO)C[C@H]1O ; read by: replicon ; measure: EC50 ; result: >10 µM
CC(=O)N(CCN(Cc1ccccc1)C(C)=O)Cc1ccccc1 ; read by: GFP ; cells: Huh 7 replicon cells ; measure: EC50 ; result: >50 µM
COC(=O)c1ncn(C/C=C2/OC(=O)C(OCc3ccccc3)=C2OCc2ccccc2)n1 ; read by: luciferase / replicon ; cells: Huh 5-2 ; strain or isolate: 1b ; measure: EC90 ; result: >100 µg/mL
CCC(C)S(=O)(=O)NC(=O)c1ccc2c(C3CCCCC3)c3n(c2c1)CC(C(=O)N1C2CCC1CN(C)C2)=Cc1cc(OC)ccc1-3 ; read by: replicon ; measure: EC50 ; result: 0.001–0.5 µM
O=c1ccn([C@@H]2O[C@H](CO)[C@@H](O)[C@H]2O)c(=S)[nH]1 ; read by: replicon ; cells: Huh7 ; measure: EC50 ; result: 0.86 µM
C=C[C@@H]1C[C@]1(NC(=O)[C@@H]1C[C@@H](Oc2cc(-c3ccccc3)nc3cc(OC)ccc23)CN1C(=O)[C@H](CC(C)C)NC(=O)OC(C)(C)C)C(=O)NS(=O)(=O)C1CC1 ; read by: replicon ; cells: Huh7 ; strain or isolate: 1b ; measure: EC50 ; result: <0.05 µM
CC(=O)Oc1c(C(=O)Oc2ccccc2)c2c(c3ccccc13)OC(C)(C)CC2 ; read by: PCR ; cells: Huh7 ; strain or isolate: GT1b ; measure: EC50 ; result: 5 µg/mL
NC(=S)Nc1cccc(OCCCCCOc2cccc3cccnc23)c1 ; read by: reporter gene / fluorescence ; cells: Ava5-EG(delta4AB)SEAP ; measure: EC50 ; result: 0.001–1 µM
Nc1ncnc2c1c(-c1ccoc1)cn2[C@@H]1O[C@H](CO)[C@@H](O)[C@H]1F ; read by: replicon ; cells: HCV replicon ; strain or isolate: 1b ; measure: EC50 ; result: 5.75 µM
CC1(C)CC(=O)C2=C(C1)Nc1c(O)cccc1N(C(=O)CC#N)C2c1ccc(OCc2ccccc2)cc1Cl ; read by: luciferase / reporter gene / replicon ; strain or isolate: 1b ; measure: EC50 ; result: 1.21 µM
CC1(C)CCc2c(C(=O)Oc3ccc(I)cc3)c(O)c3ccccc3c2O1 ; read by: PCR ; cells: Huh7 ; strain or isolate: GT1b ; measure: EC50 ; result: 5 µg/mL
CC1(C)CC(=O)C2=C(C1)Nc1c(O)cccc1N(C(=O)CCC(=O)N1CCN(C(=O)c3ccccc3)CC1)C2c1ccc(OCc2ccccc2)cc1Cl ; read by: luciferase / reporter gene / replicon ; strain or isolate: 1b ; measure: EC50 ; result: 5.22 µM
Nc1ncnc2c1c(-c1cccs1)cn2[C@H]1O[C@H](CO)[C@@H](O)C1(F)F ; read by: replicon ; cells: HCV replicon ; strain or isolate: 1b ; measure: EC50 ; result: 0.44 µM
COc1ccc2c(c1)CC(C(=O)N1C3CCC1CN(C)C3)Cn1c-2c(C2CCCCC2)c2ccc(C(=O)NS(=O)(=O)N(C)C)cc21 ; read by: replicon ; measure: EC50 ; result: 0.001–0.5 µM
COc1ccc(C/C(N)=N/OC(=O)C(c2ccccc2)c2ccccc2)cc1OC ; read by: replicon ; cells: Huh7 ; measure: EC50 ; result: 2.29 µM
COC(=O)c1c(CC=C(C)C)c(O)c2ccccc2c1O ; read by: PCR ; cells: Huh7 ; strain or isolate: GT1b ; measure: EC50 ; result: 5–10 µg/mL
Nc1ccn([C@@H]2CC(CO)(CO)[C@@H](O)[C@]2(O)CCO)c(=O)n1 ; read by: replicon ; strain or isolate: 1b ; measure: EC50 ; result: 21.1 µM
C=C[C@@H]1C[C@]1(NC(=O)[C@@H]1C[C@@H](Oc2cc(-c3ccccc3)nc3cc(OC)ccc23)CN1C(=O)[C@@H](Nc1ccncc1[N+](=O)[O-])C(C)(C)C)C(=O)NS(=O)(=O)C1CC1 ; read by: replicon ; cells: Huh7 ; strain or isolate: 1b ; measure: EC50 ; result: <50 µM
NC(=S)Nc1cccc(OCCCCCCCOc2ccc(-c3ccccc3)cc2)c1 ; read by: reporter gene / fluorescence ; cells: Ava5-EG(delta4AB)SEAP ; measure: EC50 ; result: 0.001–1 µM
Cc1cc2c(cc1F)c(C#N)c(-c1ccc(S(=O)(=O)N[C@@H](C)C(F)(F)F)cn1)n2-c1ncccn1 ; read by: PCR ; strain or isolate: 1b ; measure: EC50 ; result: 0.0057 µM
N/C(Cc1ccc([N+](=O)[O-])cc1)=N\OC(=O)N1CCOCC1 ; read by: replicon ; cells: Huh7 ; measure: EC50 ; result: 1.55 µM
CCCCCCNC(=S)Nc1cccc(OCCCCCc2ccccc2)c1 ; read by: reporter gene / fluorescence ; cells: Ava5-EG(delta4AB)SEAP ; measure: EC50 ; result: 0.001–1 µM
OC[C@@H]1C[C@@H](O)[C@H](n2cnc3c(-c4ccccc4)ncnc32)O1 ; read by: replicon ; measure: EC50 ; result: >10 µM
COc1ccc(/C(N)=N/OC(=O)N2CCOCC2)cc1 ; read by: replicon ; cells: Huh7 ; measure: EC50 ; result: 1.77 µM
COC(=O)c1c2c(c3ccccc3c1OC(C)=O)OC(C)(C)CC2 ; read by: PCR ; cells: Huh7 ; strain or isolate: GT1b ; measure: EC50 ; result: 2–4 µg/mL
C=C[C@@H]1C[C@]1(NC(=O)[C@@H]1C[C@@H](Oc2cc(-c3ccccc3)nc3cc(OC)ccc23)CN1C(=O)[C@@H](NC(=O)C(=O)OC)C(C)(C)C)C(=O)NS(=O)(=O)C1CC1 ; read by: replicon ; cells: Huh7 ; strain or isolate: 1b ; measure: EC50 ; result: <0.5 µM
OC[C@@H]1C[C@@H](O)[C@H](n2cnc3c(-c4ccco4)ncnc32)O1 ; read by: replicon ; measure: EC50 ; result: >10 µM
Fc1ccccc1-c1nc2ccn(Cc3ccc(-c4ccc(C(F)(F)F)cc4C(F)(F)F)nn3)cc-2n1 ; read by: PCR ; cells: Huh7 ; strain or isolate: GT1b ; measure: EC50 ; result: 0.02–0.03 µg/mL
N/C(Cc1cccc2ccccc12)=N\OC(=O)N1CCOCC1 ; read by: replicon ; cells: Huh7 ; measure: EC50 ; result: 0.36 µM
COc1ccc2c(c1)C=C(C(=O)N1C[C@@H](C)N(C)[C@@H](C)C1)Cn1c-2c(C2CCCCC2)c2ccc(C(=O)NS(=O)(=O)N(C)C)nc21 ; read by: replicon ; strain or isolate: 1b ; measure: EC50 ; result: 0.001–0.5 µM
C=C[C@@H]1C[C@]1(NC(=O)[C@@H]1C[C@@H](Oc2cc(-c3ccccc3)nc3cc(OC)ccc23)CN1C(=O)[C@@H](NC(=O)C(F)(F)F)C(C)(C)C)C(=O)NS(=O)(=O)C1CC1 ; read by: replicon ; cells: Huh7 ; strain or isolate: 1b ; measure: EC50 ; result: <0.5 µM
COC(=O)C1=Cc2cc(OC)ccc2-c2c(C3CCCCC3)c3ccc(C(=O)NS(=O)(=O)N(C)C)nc3n2C1 ; read by: replicon ; strain or isolate: 1b ; measure: EC50 ; result: 0.001–0.5 µM
CC(=O)N1c2cccc(O)c2NC2=C(C(=O)CC(C)(C)C2)C1c1ccc(S(C)(=O)=O)cc1Cl ; read by: luciferase / reporter gene / replicon ; strain or isolate: 1b ; measure: EC50 ; result: >100 µM
COc1ccc2c(c1)[C@@H]1C[C@]1(C(=O)N1[C@@H]3CC[C@H]1CN(C)C3)Cn1c-2c(C2CCCCC2)c2ccc(C(=O)NS(=O)(=O)N(C)C)nc21 ; read by: replicon ; strain or isolate: 1b ; measure: EC50 ; result: 0.001–0.5 µM
C=C[C@@H]1C[C@]1(NC(=O)[C@@H]1C[C@@H](Oc2cc(-c3ccccc3)nc3cc(OC)ccc23)CN1C(=O)[C@@H](NC(=O)OC(C)(C)C)C1CCCC1)C(=O)NS(=O)(=O)C1CC1 ; read by: replicon ; cells: Huh7 ; strain or isolate: 1b ; measure: EC50 ; result: <0.05 µM
N/C(=N\OC(=O)N1CCOCC1)c1ccc(Cl)cc1 ; read by: replicon ; cells: Huh7 ; measure: EC50 ; result: 1.52 µM
CC1(C)CC(=O)C2=C(C1)Nc1c(O)cccc1NC2c1ccc(OCc2ccccc2)c(F)c1 ; read by: luciferase / reporter gene / replicon ; strain or isolate: 1b ; measure: EC50 ; result: 2.5 µM
COc1ccc2c(c1)C=C(C(=O)N1CC3CCC(C1)N3C(=O)OC(C)(C)C)Cn1c-2c(C2CCCCC2)c2ccc(C(=O)NS(=O)(=O)N(C)C)cc21 ; read by: replicon ; measure: EC50 ; result: 0.001–0.5 µM
Nc1ncnc2c1c(-c1ccccc1)cn2[C@@H]1O[C@H](CO)[C@@H](O)C1(F)F ; read by: replicon ; cells: HCV replicon ; strain or isolate: 1a ; measure: EC50 ; result: 8.97 µM
COCCOC(=O)NC(=S)Nc1ccc(Oc2ccc(Cl)cc2)c(Cl)c1 ; read by: replicon ; cells: Huh7 ; measure: EC50 ; result: 0.94 µM
CC1(C)CCc2c(C(=O)Oc3ccccc3)c(O)c3ccccc3c2O1 ; read by: PCR ; cells: Huh7 ; strain or isolate: GT1b ; measure: EC50 ; result: 5 µg/mL
N/C(=N\OC(=O)N1CCOCC1)c1ccc(I)cc1 ; read by: replicon ; cells: Huh7 ; measure: EC50 ; result: 1.6 µM
Nc1nc2c(ncn2[C@@H]2O[C@H](CO)[C@@H](O)[C@@H]2F)c(=O)[nH]1 ; read by: replicon ; cells: Huh7 ; measure: EC50 ; result: <20 µM

3 of the rows above, restated:

COc1ccc2c(c1)C=C(C(=O)N1C[C@@H](C)N(C)[C@@H](C)C1)Cn1c-2c(C2CCCCC2)c2ccc(C(=O)NS(=O)(=O)N(C)C)nc21 ; read by: replicon ; strain or isolate: 1b ; measure: EC50 ; result: 0.001–0.5 µM
NC(=S)Nc1cccc(OCCCCCOc2cccc3cccnc23)c1 ; read by: reporter gene / fluorescence ; cells: Ava5-EG(delta4AB)SEAP ; measure: EC50 ; result: 0.001–1 µM
CC1(C)CC(=O)C2=C(C1)Nc1c(O)cccc1NC2c1ccc(OCc2ccccc2)c(F)c1 ; read by: luciferase / reporter gene / replicon ; strain or isolate: 1b ; measure: EC50 ; result: 2.5 µM

Two numbers with a dash give a range or band. Lines come from different laboratories, so protocols vary.